Measured values as given in publication PMC4739419, “Mutations in the nucleotide binding and hydrolysis domains of Helicobacter pylori MutS2 lead to altered biochemical activities and inactivation of its in vivo function” (BMC Microbiology, 2016).
The exact form of at least one protein or probe is not confirmed. For some assays here: A weaker result is weaker than the reference pair of the same experiment. Where a protein sequence is shown, tags need not be part of it. For some assays here: At least one verdict rests on a figure or table, not on a statement of the authors. Whether high values mean tight binding is not given here for every scale.

What was measured:
[1] = molecular target: T1, HpMutS2 (Helicobacter pylori 26695) (UniProt O25338); test: EMSA; conditions: EMSA: 0.16 nM DNA, buffer A (50 mM Tris pH 8.0, 50 mM NaCl, 1 mM DTT per Fig. S3 legend) with 0.1 ug/ul BSA, NaCl 110 mM, no divalent metal stated, 30 min on ice, recombinant protein, protein details: C-terminal His6, label: 5'-32P
T1 sequence (looked up, limits assumed): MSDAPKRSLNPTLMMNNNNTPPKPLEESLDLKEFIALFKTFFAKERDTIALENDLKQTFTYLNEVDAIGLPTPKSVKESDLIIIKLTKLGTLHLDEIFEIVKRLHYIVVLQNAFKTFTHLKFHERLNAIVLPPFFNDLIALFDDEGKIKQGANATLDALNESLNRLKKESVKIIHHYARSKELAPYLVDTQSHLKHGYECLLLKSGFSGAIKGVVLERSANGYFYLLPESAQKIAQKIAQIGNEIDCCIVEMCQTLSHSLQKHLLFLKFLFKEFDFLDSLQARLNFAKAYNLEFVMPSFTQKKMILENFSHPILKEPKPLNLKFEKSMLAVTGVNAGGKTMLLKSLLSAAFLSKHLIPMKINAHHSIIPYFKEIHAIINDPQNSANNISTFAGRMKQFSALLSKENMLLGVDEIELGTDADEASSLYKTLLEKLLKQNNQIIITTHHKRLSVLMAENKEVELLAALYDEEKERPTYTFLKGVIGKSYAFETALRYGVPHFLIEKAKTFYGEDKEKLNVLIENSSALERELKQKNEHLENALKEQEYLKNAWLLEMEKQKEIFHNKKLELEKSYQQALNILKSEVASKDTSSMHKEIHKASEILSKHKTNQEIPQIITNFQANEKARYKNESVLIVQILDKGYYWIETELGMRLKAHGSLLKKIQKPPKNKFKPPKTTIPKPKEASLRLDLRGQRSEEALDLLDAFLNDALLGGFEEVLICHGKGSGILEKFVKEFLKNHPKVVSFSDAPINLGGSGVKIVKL

[2] = molecular target: T1, HpMutS2 (Helicobacter pylori 26695); test: competition with a labelled probe; conditions: unlabelled ssDNA chase of preformed complex; EMSA: 0.16 nM DNA, buffer A (50 mM Tris pH 8.0, 50 mM NaCl, 1 mM DTT per Fig. S3 legend) with 0.1 ug/ul BSA, NaCl 110 mM, no divalent metal stated, 30 min on ice; recombinant protein; protein details: C-terminal His6; label: 5'-32P; single-stranded DNA
[3] = no nucleotide, folded or branched DNA

Question: For “ATCGATAGTCGGATCCTCCAGACAGCTCCATGTAGCAAGGCACTGGTAGAATTCGGCAGCGTC [ssDNA 63-mer (ODN4)]”, which binding signal (fold lower than no nucleotide) ([1]; 1 mM ATP, Kd could not be determined, single-stranded DNA) is on record?
Answer: 5

Question: What about the binding signal (% dissociated) ([1]; preformed complex chased with 5 mM ATP, 37 C, single-stranded DNA) of the same sequence?
Answer: 20

Question: What about the binding signal (% displaced by 500 nM) [2] of the same sequence?
Answer: 70

Question: How did the Kd ([1]; 1 mM ADP, folded or branched DNA) turn out when “GACGCTGCCGAATTCTACCAGTGCCTTGCTAGGACATCTTTGCCCACCTGCAGGTTCACCC / GGGTGAACCTGCAGGTGGGCAAAGATGTCCATTAGTGGATCCTTAGCACCGTTGTAAGACG / CGTCTTACAACGGTGCTAAGGATGCACTAATCATGGAGCTGTCTAGAGGATCCGACTATCGAT / ATCGATAGTCGGATCCTCCAGACAGCTCCATGTAGCAAGGCACTGGTAGAATTCGGCAGCGTC [Holliday junction]” was run?
Answer: 0.0226 µM

Question: And the Kd ([1]; 1 mM ATP, folded or branched DNA)?
Answer: 0.0208 µM

Question: What about the Kd ([1]; 1 mM ATPgS, folded or branched DNA) of the same sequence?
Answer: 0.0225 µM

Question: And the Kd [1, 3]?
Answer: 0.0144 µM

Question: Does “GACGCTGCCGAATTCTACCAGTGCCTTGCTACATGGAGCTGTCTGGAGGATCCGACTATCGAT (double strand) [dsDNA 63 bp (ODN0+ODN4)]” bind ([1]; 1 mM ATP)?
Answer: binds more weakly

Question: Does “GACGCTGCCGAATTCTACCAGTGCCTTGCTACATGGAGCTGTCTGGAGGATCCGACTATCGAT (double strand) [dsDNA 63 bp (ODN0+ODN4)]” bind ([1]; no nucleotide)?
Answer: binds

Question: Does “CCGCTACCAGTGATCACCAATGGATTGCTAGGACATCTTTGCCCACCTGCAGGTTCACCC / GGGTGAACCTGCAGGTGATGTTAGCCATGACCTGTGATCACTGGTAGCGG / TAAGACTGGACTCAGCTAGGTCATGGCTAACAT [D-loop]” bind ([1]; 1 mM ATP, no significant change, folded or branched DNA)?
Answer: binds

Question: Does “CCGCTACCAGTGATCACCAATGGATTGCTAGGACATCTTTGCCCACCTGCAGGTTCACCC / GGGTGAACCTGCAGGTGATGTTAGCCATGACCTGTGATCACTGGTAGCGG / TAAGACTGGACTCAGCTAGGTCATGGCTAACAT [D-loop]” bind [1, 3]?
Answer: binds
